Measured values from several laboratories, pooled; numbers as filed in NIAID ChemDB.

All rows: target-level tests; agent: HIV-1; target: Integrase

a–b is a range or a potency band. An empty or dashed field is not shown. Conditions beyond the fields shown may differ between rows. Fold resistance: result on the changed form divided by that on wild type. ICn is the concentration giving n% inhibition.

compound | read by | read-out | mutations | value
CC1(C)c2nc(C(=O)NCc3ccc(F)cc3)c(O)c(=O)n2CCN1CC(=O)N1CCOCC1 | ELISA | IC50 | - | <10 µM
O=C1c2c(O)c(=O)ccn2CCN1Cc1ccc(Cl)c(F)c1 | ELISA | IC50 | - | 0.01–0.1 µM
O=C(/C=C/c1ccc(O)c(O)c1)Oc1cccc2c(N=C=S)cccc12 | 3′ processing | fold resistance | C65S | 2
Cc1cc2c(cc1Cl)SC(C(=O)c1ccc3ccccc3c1)=NS2(=O)=O | strand transfer | fold resistance | INTG-C65S | 5
O=c1c(-c2cccnc2)cn2ccn(Cc3cccc(Cl)c3)c(=O)c2c1O | ELISA | IC50 | - | <0.01 µM
O=C(/C=C/c1ccc(O)c(O)c1)Oc1ccc2c(N=C=S)cccc2c1 | 3′ processing | fold resistance | C65S | 2.33
O=C1c2c(O)c(=O)ccn2C(Cc2ccccc2)CN1Cc1ccc(Cl)c(Cl)c1 | ELISA | IC50 | - | 0.01–0.1 µM
Cc1cc2c(cc1Cl)SC(C(=O)c1ccc(Cl)c(Cl)c1)=NS2(=O)=O | 3′ processing | fold resistance | INTG-C65S | 1.33
O=C(/C=C/c1ccc(O)c(O)c1)OCCc1ccccc1N=C=S | 3′ processing | fold resistance | C65S | 2.33
Cc1cc2c(cc1Cl)SC(C(=O)c1ccc(Br)cc1)=NS2(=O)=O | 3′ processing | fold resistance | INTG-C65S | 2.17
O=C(NCc1ccc(F)cc1)c1nc2n(c(=O)c1O)CCN(Cc1cn[nH]n1)C2 | ELISA | IC50 | - | <10 µM
O=C(/C=C/c1ccc(O)c(O)c1)OCCc1ccc(NC(=S)SCCO)cc1 | 3′ processing | fold resistance | C65S | 2.33
CCN(C(=O)C(=O)N(C)C)C1CN(C)CCn2c1nc(C(=O)NCc1ccc(F)cc1)c(O)c2=O | ELISA | IC50 | - | <10 µM
CC(=O)c1cn(Cc2cccc(Cl)c2)c(=O)c2c(O)c(=O)ccn12 | ELISA | IC50 | - | 0.01–0.1 µM
Cc1cc2c(cc1Cl)SC(C(=O)c1ccc(Cl)cc1)=NS2(=O)=O | strand transfer | fold resistance | INTG-C65S | 0.51
O=c1ccn2ccn(CCOc3ccccc3Cl)c(=O)c2c1O | ELISA | IC50 | - | 0.1–1 µM
COc1ccc(C(=O)C2=NS(=O)(=O)c3cc(C)c(Cl)cc3S2)cc1 | strand transfer | fold resistance | INTG-C65S | 0.9
COc1cc(Cl)ccc1CN1CCn2cc(-c3nccs3)c(=O)c(O)c2C1=O | ELISA | IC50 | - | 0.01–0.1 µM
CC1(C)NC(=O)Cn2c1nc(C(=O)NCc1ccc(F)cc1)c(O)c2=O | ELISA | IC50 | - | <10 µM

A second listing of 2 rows from above:

compound	read by	read-out	mutations	value
CCN(C(=O)C(=O)N(C)C)C1CN(C)CCn2c1nc(C(=O)NCc1ccc(F)cc1)c(O)c2=O	ELISA	IC50	-	<10 µM
O=C(/C=C/c1ccc(O)c(O)c1)Oc1cccc2c(N=C=S)cccc12	3′ processing	fold resistance	C65S	2